Source: patent publication EP4296674A1 (Université Toulouse III - Paul Sabatier, dated 2023)
Changes are numbered by the printed parent chain. Names may count otherwise.

T1: N-terminal His6-tagged HadD(H42F) of Mycobacterium tuberculosis (Mycobacterium tuberculosis)
T1 chain: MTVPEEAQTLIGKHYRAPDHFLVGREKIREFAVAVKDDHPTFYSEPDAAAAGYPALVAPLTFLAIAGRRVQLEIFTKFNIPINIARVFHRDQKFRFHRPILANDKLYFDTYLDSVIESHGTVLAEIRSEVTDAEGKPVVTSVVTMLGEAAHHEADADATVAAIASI

T2: N-terminal His6-tagged HadD(H42Q) of Mycobacterium tuberculosis (Mycobacterium tuberculosis)
T2 chain: T1 chain with F42Q

B1: HadB(H41F) of Mycobacterium tuberculosis (enzyme)
chain: MALREFSSVKVGDQLPEKTYPLTRQDLVNYAGVSGDLNPIFWDDEIAKVVGLDTAIAHGMLTMGIGGGYVTSWVGDPGAVTEYNVRFTAVVPVPNDGKGAELVFNGRVKSVDPESKSVTIALTATTGGKKIFGRAIASAKLA
B2: HadB protein of Mycobacterium tuberculosis (untagged) (enzyme)
chain: B1 chain with F41H

Columns and labels:
[1] = molecular target: T1, N-terminal His6-tagged HadD(H42F) of …; test: coproduction in E. coli, IMAC purification through the His tag on HadD, SEC
[2] = molecular target: T2, N-terminal His6-tagged HadD(H42Q) of …; test: as above

| Binder | binding result [1] | binding result [2] |
| --- | --- | --- |
| B1 | binds | – |
| B2 | binds | binds |
